PubChem BioAssay AID1259414 | Drosophila RNAi Screening Center | 2018

- Assay: 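Fly genes that alter Wolbachia amount inside host cells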 (primary screen)
- Cell system: Drosophila JW18 cells infected with Wolbachia
- Knock-down reagent: long dsRNA against Drosophila genes, 0.25 µg dsRNA per well of a 384-well plate
- Duration: 5 days
- Conditions: cells persistently infected with Wolbachia before knock-down; no added drug
- Measured: 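Automated imaging of bacterial rRNA staining divided by host cell count, reported as plate-normalised robust z-score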
- Reading the numbers: Wolbachia per cell robust z: higher = more Wolbachia per host cell than the plate typical
- Hit rule: 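Active if absolute robust z reaches 1.5 in two or more of three replicates, leaving out multi- or no-target dsRNAs, genes unexpressed in JW18 and A1 wells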
In all, the deposit lists about 24,000 reagents; below is an unselected part of those that have a named target and a result. Over the whole deposit, about 1,210 (5%) were called active. 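Inactive calls also include excluded dsRNAs with several or no targets, genes unexpressed in JW18, and well A1, regardless of score.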 Names joined by + are all predicted targets of the reagent.

Wolbachia per cell robust z, rep 1	Wolbachia per cell robust z, rep 2	Wolbachia per cell robust z, rep 3	call	gene	amplicon
0.845	2.01	0.458	inactive	ttm3	DRSC03736
0.364	-1.22	-0.424	inactive	snRNA:U12	DRSC37892
-1.14	0.335	-5.09	inactive	Ir60d	DRSC04218
-0.0386	-5	-1.22	inactive	lncRNA:CR32553	DRSC19229
-0.216	0.442	0.622	inactive	CG2841	DRSC18824
1.02	0.228	1.36	inactive	CG2841	DRSC22106
0.111	0.098	0.704	inactive	CG9308	DRSC04539
-0.56	-0.27	-0.249	inactive	CG9308	DRSC28962
0.398	-1.15	-0.441	inactive	CG31835 + CG42585	DRSC01412
-0.0477	-0.2	-2	inactive	CG42693	DRSC41441
-0.402	-2.99	-0.906	inactive	CG33932 + Rpp20	DRSC19467
0.531	0.386	0.412	inactive	CG2865	DRSC18527
0.0474	-0.321	-0.114	inactive	CG2865	DRSC18528
-0.814	0.0549	-1.49	inactive	CG2865	DRSC28086
-1.6	0.465	-1.5	inactive	CG13198	DRSC06323
-0.3	0.599	-6.28	inactive	ph-p	DRSC18820
-0.341	0.462	0.0233	inactive	CG4267	DRSC00102
0.9	0.399	-1.83	inactive	CG4267	DRSC00647
-0.825	0.583	-0.641	inactive	CG4267	DRSC28673
-1.26	0.289	-0.135	inactive	CG4267	DRSC29852
-3.14	-0.864	2.11	inactive	gish	DRSC16154
-0.662	0.282	0.124	inactive	gish	DRSC40750
-0.411	-2.77	-1.98	active	CG8036	DRSC16366
-6.36	0.0155	0.392	inactive	CG14657	DRSC12219
0.911	-0.0411	-0.181	inactive	CG14657	DRSC12243
-0.774	-0.197	0.261	inactive	CG34116 + Ccdc58	DRSC10105
-0.232	-1.86	-1.45	inactive	CG42505 + CG31358 + CG42504	DRSC15308
0.952	-4.93	0.17	inactive	EMC3	DRSC02989
0.814	-0.0928	-0.158	inactive	EMC3	DRSC28014
0.554	0.337	0.521	inactive	Slimp	DRSC13656
-0.683	-1.56	-0.29	inactive	CG33285	DRSC11463
-1.01	0.454	0.19	inactive	CG33285	DRSC26954
-3.08	-5.24	0.0789	active	CG5346	DRSC15778
-0.626	0.129	-0.477	inactive	CG5346	DRSC26107
0.817	0.214	0.334	inactive	CG5346	DRSC39072
0.883	0.105	2.03	inactive	Polr2G	DRSC16068
-1.1	0.872	-0.16	inactive	Ttc30	DRSC02818
-0.587	0.269	-0.777	inactive	Ttc30	DRSC25846
-2.34	-0.498	-0.666	inactive	CG13445	DRSC09992
-0.442	-0.449	0.594	inactive	CG13445	DRSC25076
-1.3	-0.681	-0.155	inactive	CG18269	DRSC02660
-0.228	-0.12	1.19	inactive	Vps16A	DRSC16422
0.439	-1.52	-0.0654	inactive	CG13843	DRSC14693
0.531	0.374	-2.44	inactive	Nmd3	DRSC18687
-0.992	-1.31	-0.843	inactive	Nmd3	DRSC22834
-0.458	-0.357	-2.96	inactive	CG13226	DRSC06346

Individual results from the entries so far.
Result for CG2865 [DRSC18527] in “call”: inactive
CG5346 [DRSC26107], Wolbachia per cell robust z, rep 2 = 0.129
For “call”, CG33285 [DRSC26954] is entered as inactive
Under “Wolbachia per cell robust z, rep 1”, CG5346 [DRSC39072] reads 0.817
For “Wolbachia per cell robust z, rep 1”, gish [DRSC40750] is entered as -0.662
CG5346 [DRSC15778], Wolbachia per cell robust z, rep 1 → -3.08
